In US12576103B2 (priority 2020, dated 2026):

System: SARS-COV-2
Type: cell-based
Settings: heparin concentrations at or above 1 mg/mL; FIG. 8 dose response up to 2 mg/mL

Substance heparin has a cytopathic effect of 100%.
